We go through three compounds from article PMC8469817, “Synthesis and Decontamination Effect on Chemical and Biological Agents of Benzoxonium-Like Salts” (2021).

What all share (details): 5 min exposure
Assay [1] relates to Francisella tularensis LVS. Put plainly: Flow cytometry susceptibility assay. In general terms: A flow cytometer gives signals particle by particle.
For assay [2], the system named is Murine cytomegalovirus (MCMV). The assay can be described thus: Virucidal quantitative suspension test.
For another assay, the system named is SARS-CoV-2. The assay can be described thus: Virucidal quantitative suspension test.

Regarding `CCCCCCCCCCCCCC[N+](CCO)(CCO)Cc1ccccc1.[Cl-]`, the elimination of bacteria is on record as 29.04 ± 8.80% in assay [1] (concentration 0.01%), 58.16 ± 7.23% in assay [1] (concentration 0.05%) and 80.47 ± 4.61% in assay [1] (concentration 0.1%). Also, the “ΔlogTCID50 (MCMV)” value is 3.34 in assay [2] (0.01%) and > 2.34 ^a in assay [2] (0.1%). In addition, the ΔlogTCID50 (SARS-CoV-2) in the assay with SARS-CoV-2 (0.1%) is > 3.51 ^a.

As to `CCCCCCCCCCCC[N+](CCO)(CCO)Cc1ccccc1.[Cl-]`, in assay [1] (concentration 0.1%), the elimination of bacteria result was “even better effect compared to ethanol”. For the same compound, the ΔlogTCID50 (MCMV) in assay [2] (0.1%) is > 3.34 ^a.

Consider `CCCCCCCCCCCCCCCC[N+](CCO)(CCO)Cc1ccccc1.[Cl-]`, for which the “ΔlogTCID50 (MCMV)” value in assay [2] (0.01%) was −0.50; in assay [2] (0.1%) it was > 3.34 ^a. Besides, the entries for the “ΔlogTCID50 (SARS-CoV-2)” value with SARS-CoV-2 (0.01%) and in the assay on SARS-CoV-2 (0.1%) were 0.84 and 1.00, respectively.
